Measured values from several laboratories, pooled; numbers as filed in NIAID ChemDB.

Common to all: whole-cell or culture tests; agent: HIV-1; endpoint: EC50

ECn: concentration that inhibits the pathogen or its effect by n%. Neighbouring rows are from separate reports. Two numbers with a dash give a range or band.

{"compound": "CC(Cc1nc(-c2ccc(O)c(O)c2)cs1)n1cc(Cl)cn1", "read by": "single cycle / luminescence", "conditions": "pseudotyped", "cells": "HeLa", "value": "33 µM"}
{"compound": "Cc1cc(S(N)(=O)=O)ccc1NC(=O)COc1ccc(Cl)cc1C(=O)c1cc(Cl)cc(C#N)c1", "mutations": "RT-K103N V108I", "strain or isolate": "HXB2", "read by": "β-galactosidase", "cells": "HeLa + HELA CD4+", "value": "<0.01 µM"}
{"compound": "CC(C)C[C@H](NC(=O)c1ccc(NC(=O)[C@H](Cc2c[nH]c3ccccc23)NC(=O)CCC(=O)NCCOCNC(=O)CCC(=O)N[C@@H](Cc2c[nH]c3ccccc23)C(=O)Nc2ccc(C(=O)N[C@@H](CC(C)C)C(=O)O)cc2OCCc2c[nH]c3ccccc23)c(OCCc2c[nH]c3ccccc23)c1)C(=O)O", "strain or isolate": "NL4-3", "read by": "luciferase / cell fusion", "cells": "TZM-bl", "value": "20.5 µM"}
{"compound": "COc1ccc(C(=O)CSc2nc3nc(C4=CCC=C=N4)c(-c4ccccn4)nc3c(=O)[nH]2)cc1", "strain or isolate": "IIIB", "read by": "cytopathic effect / MTT / absorbance", "cells": "MT-4", "value": ">36.1 µM"}
{"compound": "Cc1cc2[nH]cnc2cc1NC(=O)COc1ccc(Cl)cc1C(=O)c1cc(F)cc(C(F)(F)F)c1", "mutations": "RT-V108I Y181C", "strain or isolate": "HXB2", "read by": "β-galactosidase", "cells": "HeLa + HELA CD4+", "value": "<0.01 µM"}
{"compound": "NC1=NC(N)c2nc(-c3ccccn3)c(-c3ccccn3)nc2N1", "strain or isolate": "IIIB", "read by": "cytopathic effect / MTT / absorbance", "cells": "MT-4", "value": ">3.23 µM"}
{"compound": "COC(=O)C(CNC(=O)/C=C/c1ccc(O)c(O)c1)NC(=O)/C=C/c1ccc(O)c(O)c1", "strain or isolate": "LAI", "read by": "cytopathic effect / neutral red", "cells": "MT-2", "value": "58 µM"}
{"compound": "Cc1cccc(C(=O)NC(C)(C)CNC(=O)C[C@@]23CC[C@]4(C)[C@H](CC[C@@H]5[C@@]6(C)CC[C@H](OC(=O)[C@H]7C[C@@H](C(=O)O)C7(C)C)C(C)(C)[C@@H]6CC[C@]54C)C2=C(C(C)C)C(=O)C3)n1", "strain or isolate": "92HT599", "read by": "p24 / ELISA", "cells": "MT-2", "value": "<1 µM"}
{"compound": "O=C(NCC(NC(=O)c1ccc(O)c(O)c1)C(=O)O)c1ccc(O)c(O)c1", "strain or isolate": "LAI", "read by": "cytopathic effect / neutral red", "cells": "MT-2", "value": "94 µM"}
{"compound": "CC(C)C1=C2[C@H]3CC[C@@H]4[C@@]5(C)CC[C@H](OC(=O)[C@H]6C[C@@H](C(=O)O)C6(C)C)C(C)(C)[C@@H]5CC[C@@]4(C)[C@]3(C)CC[C@@]2(CC(=O)NC2(CNC(=O)c3ccc(Cl)cc3)CNC2)CC1=O", "strain or isolate": "92HT599", "read by": "p24 / ELISA", "cells": "MT-2", "value": "<1 µM"}
{"compound": "Cc1cc(C#N)cc(C(=O)c2cc(Cl)ccc2OCC(=O)Nc2cnc(S(N)(=O)=O)cc2C)c1", "strain or isolate": "WTRVA", "read by": "β-galactosidase", "cells": "HeLa + HELA CD4+", "value": "<0.01 µM"}
{"compound": "O=C(CSc1nc2nc(C3=CCC=C=N3)c(-c3ccccn3)nc2c(=O)[nH]1)c1ccccc1", "strain or isolate": "IIIB", "read by": "cytopathic effect / MTT / absorbance", "cells": "MT-4", "value": ">41.88 µM"}
{"compound": "Cc1cc(C#N)cc(C(=O)c2cc(Cl)ccc2OCC(=O)Nc2ccc(S(N)(=O)=O)cc2C)c1", "mutations": "RT-P225H", "strain or isolate": "HXB2", "read by": "β-galactosidase", "cells": "HeLa + HELA CD4+", "value": "<0.01 µM"}
{"compound": "O=c1c2nc(-c3ccccn3)c(-c3ccccn3)nc2nc2scc(-c3ccccc3)n12", "strain or isolate": "IIIB", "read by": "cytopathic effect / MTT / absorbance", "cells": "MT-4", "value": ">2.25 µM"}
{"compound": "COC(=O)C(CCCCNC(=O)c1ccc(O)c(O)c1)NC(=O)c1ccc(O)c(O)c1", "strain or isolate": "LAI", "read by": "cytopathic effect / neutral red", "cells": "MT-2", "value": ">62.5 µM"}
{"compound": "Cc1cc(S(N)(=O)=O)ccc1NC(=O)COc1ccc(Cl)cc1C(=O)c1cccc(C#N)c1", "mutations": "RT-K103N G190A", "strain or isolate": "HXB2 (RT-K103N G190A) Recombinant", "read by": "β-galactosidase", "cells": "HeLa + HELA CD4+", "value": "0.011–0.1 µM"}
{"compound": "COC(=O)C(CCNC(=O)/C=C/c1cc(O)c(O)c(O)c1)NC(=O)/C=C/c1cc(O)c(O)c(O)c1", "strain or isolate": "LAI", "read by": "cytopathic effect / neutral red", "cells": "MT-2", "value": "19.4 µM"}
{"compound": "COCCOc1cc(Cl)ccc1C(=O)NC(C)(C)CNC[C@H](O)[C@@]12CC[C@]3(C)[C@H](CC[C@@H]4[C@@]5(C)CC[C@H](OC(=O)[C@H]6C[C@@H](C(=O)O)C6(C)C)C(C)(C)[C@@H]5CC[C@]43C)C1=C(C(C)C)C(=O)C2", "strain or isolate": "92HT599", "read by": "p24 / ELISA", "cells": "MT-2", "value": "<1 µM"}
{"compound": "O=C(NCCCC(NC(=O)c1cc(O)c(O)c(O)c1)C(=O)O)c1cc(O)c(O)c(O)c1", "strain or isolate": "LAI", "read by": "cytopathic effect / neutral red", "cells": "MT-2", "value": "2.5 µM"}
{"compound": "Nc1nc(=S)c2nc(-c3ccccn3)c(-c3ccccn3)nc2[nH]1", "strain or isolate": "IIIB", "read by": "cytopathic effect / MTT / absorbance", "cells": "MT-4", "value": ">47.64 µM"}
{"compound": "Cc1cncc(CN(CCN(C)C)C(=O)C[C@@]23CC[C@]4(C)[C@H](CC[C@@H]5[C@@]6(C)CC[C@H](OC(=O)[C@H]7C[C@@H](C(=O)O)C7(C)C)C(C)(C)[C@@H]6CC[C@]54C)C2=C(C(C)C)C(=O)C3)n1", "strain or isolate": "92HT599", "read by": "p24 / ELISA", "cells": "MT-2", "value": "<1 µM"}
{"compound": "O=c1[nH]c(=O)c2nc(-c3ccccn3)c(-c3ccccn3)nc2[nH]1", "strain or isolate": "IIIB", "read by": "cytopathic effect / MTT / absorbance", "cells": "MT-4", "value": ">103 µM"}
{"compound": "Cc1cc2cn[nH]c2cc1NC(=O)COc1ccc(Cl)cc1C(=O)c1cccc(C#N)c1", "mutations": "RT-Y181C", "strain or isolate": "HXB2", "read by": "β-galactosidase", "cells": "HeLa + HELA CD4+", "value": "<0.01 µM"}
{"compound": "COC(=O)C(CCCNC(=O)/C=C/c1cc(OC)c(OC)c(OC)c1)NC(=O)/C=C/c1cc(OC)c(OC)c(OC)c1", "strain or isolate": "LAI", "read by": "cytopathic effect / neutral red", "cells": "MT-2", "value": ">31.3 µM"}
{"compound": "CC(C)C1=C2[C@H]3CC[C@@H]4[C@@]5(C)CC[C@H](OC(=O)[C@H]6C[C@@H](C(=O)O)C6(C)C)C(C)(C)[C@@H]5CC[C@@]4(C)[C@]3(C)CC[C@@]2(CCNC[C@H](CO)NC(=O)c2ccc(Cl)cc2)CC1=O", "strain or isolate": "92HT599", "read by": "p24 / ELISA", "cells": "MT-2", "value": "<1 µM"}
{"compound": "O=C(NCCC(NC(=O)c1ccc(O)c(O)c1)C(=O)O)c1ccc(O)c(O)c1", "strain or isolate": "LAI", "read by": "cytopathic effect / neutral red", "cells": "MT-2", "value": ">62.5 µM"}
{"compound": "CC(C)C1=C2[C@H]3CC[C@@H]4[C@@]5(C)CC[C@H](OC(=O)[C@H]6C[C@@H](C(=O)O)C6(C)C)C(C)(C)[C@@H]5CC[C@@]4(C)[C@]3(C)CC[C@@]2(CCNC(=O)C2CCCCC2)CC1=O", "strain or isolate": "92HT599", "read by": "p24 / ELISA", "cells": "MT-2", "value": "<1 µM"}
{"compound": "Cc1cc(S(N)(=O)=O)ccc1NC(=O)COc1ccc(Cl)cc1C(=O)c1cccc(C#N)n1", "mutations": "RT-K103N G190A", "strain or isolate": "HXB2 (RT-K103N G190A) Recombinant", "read by": "β-galactosidase", "cells": "HeLa + HELA CD4+", "value": "<0.01 µM"}

Again, the opening 4 rows:

CC(Cc1nc(-c2ccc(O)c(O)c2)cs1)n1cc(Cl)cn1 ; read by: single cycle / luminescence ; conditions: pseudotyped ; cells: HeLa ; value: 33 µM
Cc1cc(S(N)(=O)=O)ccc1NC(=O)COc1ccc(Cl)cc1C(=O)c1cc(Cl)cc(C#N)c1 ; mutations: RT-K103N V108I ; strain or isolate: HXB2 ; read by: β-galactosidase ; cells: HeLa + HELA CD4+ ; value: <0.01 µM
CC(C)C[C@H](NC(=O)c1ccc(NC(=O)[C@H](Cc2c[nH]c3ccccc23)NC(=O)CCC(=O)NCCOCNC(=O)CCC(=O)N[C@@H](Cc2c[nH]c3ccccc23)C(=O)Nc2ccc(C(=O)N[C@@H](CC(C)C)C(=O)O)cc2OCCc2c[nH]c3ccccc23)c(OCCc2c[nH]c3ccccc23)c1)C(=O)O ; strain or isolate: NL4-3 ; read by: luciferase / cell fusion ; cells: TZM-bl ; value: 20.5 µM
COc1ccc(C(=O)CSc2nc3nc(C4=CCC=C=N4)c(-c4ccccn4)nc3c(=O)[nH]2)cc1 ; strain or isolate: IIIB ; read by: cytopathic effect / MTT / absorbance ; cells: MT-4 ; value: >36.1 µM